Results deposited as PubChem BioAssay AID504761 (Drosophila RNAi Screening Center, 2011)
In all, the deposit lists about 22,000 reagents; below is an unselected part of those with a known target gene and a result. Over the whole deposit, 116 (0.52%) are marked active. 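Calls depend on retest data that are not deposited; infection was ranked per plate without normalising between plates; the unit of the infection score is not given.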 Raw values vary from plate to plate and are shown uncorrected. Not stated in the record: the amount of reagent, the time to read-out.

- Screen: 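Insect host genes that dengue virus relies on to spread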 (primary screen)
- Cell system: D.Mel-2 cells from Drosophila
- Knock-down reagent: long dsRNA against Drosophila genes
- Challenge: infection with dengue virus type 2; dose and infection time not stated
- Detection: 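Per well on two replicate plates, imaging gave the percent of cells positive for viral envelope protein, ranked by infection, and a nuclear count of cells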
- Scale: infection score: higher = more virus-infected cells; cell count: higher = more cells in the well
- Call rule: 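Low infection ranks in the two replicates (chance level up to 0.065) followed by a retest with a 1.5-fold or larger significant decrease, p below 0.05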
- Calls: active = confirmed: knock-down lowers infection; inactive = not picked or not confirmed

no.	Gene	dsRNA	infection score, replicate 1	infection score, replicate 2	cell count, replicate 1	cell count, replicate 2	activity call
1	CG32651	DRSC18941	2.8	1.75	6472	6905	inactive
2	Elp4	DRSC25002	4.09	1.91	6667	6189	inactive
3	CG40439	DRSC22707	2.78	1.88	6839	6954	inactive
4	CG40439	DRSC26673	8.96	0.93	6071	6012	inactive
5	RpL38	DRSC07818	3.8	2.19	5531	5623	inactive
6	wus	DRSC20278	1.5	1.14	6462	6140	inactive
7	Nek2	DRSC18124	1.28	0.63	6425	6842	inactive
8	Nek2	DRSC26714	0.59	8.53	6927	5841	inactive
9	Rab7	DRSC16810	28.9	8.35	4749	5903	inactive
10	CG12948	DRSC14576	0.5	1.79	6049	6186	inactive
11	CG12948	DRSC27910	12.3	12.4	4136	7068	inactive
12	CG4476	DRSC10424	1.19	1.83	5894	6235	inactive
13	CG4476	DRSC25362	8.73	5.58	6769	6932	inactive
14	Culd	DRSC10262	4.41	11.4	1792	3074	inactive

Next part; the last 2 above are carried over.
no.	Gene	dsRNA	infection score, replicate 1	infection score, replicate 2	cell count, replicate 1	cell count, replicate 2	activity call
13	CG4476	DRSC25362	8.73	5.58	6769	6932	inactive
14	Culd	DRSC10262	4.41	11.4	1792	3074	inactive
15	nw	DRSC06749	18.5	6.13	6228	4357	inactive
16	nw	DRSC06896	12.4	31.9	2103	1275	inactive
17	nw	DRSC25619	3.36	8.32	6273	4412	inactive
18	SCAR	DRSC03426	7.59	2.27	5453	5677	inactive
19	dos	DRSC07992	2.07	1.32	4628	4544	inactive
20	dos	DRSC08713	7.93	11.1	6354	5935	inactive
21	dos	DRSC23285	5	32.8	5475	5307	inactive
22	Chrac-16	DRSC20343	4.94	1.2	6432	6608	inactive
23	Chrac-16	DRSC23575	6.42	6.22	5998	5308	inactive
